Test results taken from paper PMC3306370.
For at least one entry, the source does not settle the construct or the ends of the probe. A negative result means that nothing was seen under these conditions.

Chains of the proteins cited; added tags and fusions are not shown. Lines headed by an entry give the natural chain unless they say otherwise; changes in a name come on top.
UniProt P0ACQ4: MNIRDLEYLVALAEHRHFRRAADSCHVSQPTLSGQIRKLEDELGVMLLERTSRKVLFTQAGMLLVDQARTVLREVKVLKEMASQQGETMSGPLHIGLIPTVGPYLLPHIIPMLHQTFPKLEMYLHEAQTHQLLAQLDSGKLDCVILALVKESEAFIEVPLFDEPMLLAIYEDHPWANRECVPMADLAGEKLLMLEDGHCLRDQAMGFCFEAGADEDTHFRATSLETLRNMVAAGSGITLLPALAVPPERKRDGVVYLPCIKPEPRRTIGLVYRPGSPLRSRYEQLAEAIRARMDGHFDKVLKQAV

Target: OxyR (E. coli) (Escherichia coli K12) (UniProt P0ACQ4)
Experiment: EMSA
Details: OxyR 58-290 pM monomer, EMSA: binding buffer as cited (ref 36), RT, 20 min, probe 21 pM, 5% native PAGE, recombinant protein, protein details: C-terminal His6 (pET-22b), label: 32P, probe letters rebuilt from the primers and the genome, part of a longer molecule

## CCTATCAAATGTGAATCGATTAATAGCTTACATTAAAAAGCAAACCCTAGCAATGAACTTTTTTTGTTAGGTATTACCTACAACTAAAGGTGGAGTGCTAGAGTTCATGA (double strand) [probe (a)]
200 mM DTT
  binding result: no binding
No DTT, +/-200 mM DTT
  binding result: no binding
